A mixed list of measured activities; the numbers were collected in NIAID ChemDB.

Common to all: tests in culture; species: HIV-1; measure: fold resistance

Fold resistance: result on the changed form divided by that on wild type. Conditions beyond the fields shown may differ between rows. An empty or dashed field is not shown.

structure | strain | mutations | cell line | method | value
CC(C)Nc1cccnc1N1CCN(C(=O)c2cc3cc(NS(C)(=O)=O)ccc3[nH]2)CC1 | E-2 (RT-V106A) | RT-V106A | CEM | cytopathic effect | 15
O=c1[nH]cnc2c1ncn2[C@H]1CC[C@@H](CO)O1 | 126 BCH-189 (RT-M184V) | RT-M184V | MT-4 | p24 | 2.95
CC(C)CN(C[C@@H](O)[C@H](Cc1ccccc1)NC(=O)O[C@H]1CCO[C@H]2OCC[C@H]21)S(=O)(=O)c1ccc2nc(NC3CC3)sc2c1 | NL4-3 | L10I M46L I54V V82A | MT-4 | p24 / luminescence | 5.3
Nc1ccn([C@H]2CC[C@@H](CO)O2)c(=O)n1 | HXB2 | RT-M184V | CD4+HELA + HeLa | plaque count | 15.7
COC(=O)c1ccc(NC(=O)CSc2nnc(C)n2-c2ccc(C)cc2)c(Cl)c1 | NL4-3 | RT-K103N Y181C | HeLa + HeLa-JC53 | luciferase | 300
Nc1ccn([C@H]2CC[C@@H](CO)O2)c(=O)n1 | 74V (RT-L74V) | RT-L74V | HT4 + HT4 LacZ-1 |  | 8.16
Nc1nc(NC2CC2)c2ncn([C@H]3C=C[C@@H](CO)C3)c2n1 | Site-directed mutant | RT-K65R H221Y | MT-2 | cytopathic effect / XTT | 5
Cc1cc(Cl)cc(S(=O)(=O)c2cccc(N)c2C#N)c1 |  | RT-P236L | HeLa + HELA CD4+ | β-galactosidase | 1.22
COC(=O)N[C@H](C(=O)N[C@@H](Cc1ccccc1)[C@@H](O)CN(Cc1ccc(-c2ccccn2)cc1)NC(=O)[C@@H](NC(=O)OC)C(C)(C)C)C(C)(C)C | Site-directed PR mutant 04 | PR-M46I I54V A71V V82A | HeLa | β-galactosidase | 1.5
Cc1ccc(-n2cnnc2SCC(=O)Nc2ccc(C)cc2Br)cc1 | NL4-3 | RT-K103N Y181C | HeLa + HeLa-JC53 | luciferase | >142
Cc1cc(O)cc(S(=O)(=O)c2cccc(N)c2C#N)c1 |  | RT-Y181C | HeLa + HELA CD4+ | β-galactosidase | 571
COC(=O)N[C@H](C(=O)N[C@@H](Cc1ccccc1)[C@@H](O)CN(Cc1ccc(-c2ccccn2)cc1)NC(=O)[C@@H](NC(=O)OC)C(C)(C)C)C(C)(C)C | NL4-3 | L10F L33I M36I M46I I54V K55R I62V L63P A71V G73S V82T | MT-4 | p24 / luminescence | >213
Cn1c2ccccc2c2c1cc(C#N)c(=O)n2-c1ccc([N+](=O)[O-])cc1 | NNRTI-resistant | RT-K103N P225H | HeLa | luciferase | 0.2
CC(C)OC(=O)OCOP(=O)(CO[C@H](C)Cn1cnc2c(N)ncnc21)OCOC(=O)OC(C)C | 74V (ddI- ddC-resistant RT L74V) | RT-L74V | MT-2 | p24 | 0.947
Cc1cn([C@H]2C[C@H](N=[N+]=[N-])[C@@H](CO)O2)c(=O)[nH]c1=O | IIIB | 8374-P47 GS-8374-resistant | MT-2 | ATP | 106
Cc1ccnc2c1NC(=O)c1cccnc1N2C1CC1 | 3TC-RS (RT-M184I) | RT-M184I | CEM + CEM-SS | cytopathic effect / XTT | 1
Cc1cn([C@H]2C=C[C@@H](CO)O2)c(=O)[nH]c1=O | HXB2 | RT-M184V | MAGI (CCR5) + MAGI | β-galactosidase | 0.74
COc1ccc(-n2c(C)nnc2SCC(=O)Nc2ccccc2Br)c2ccccc12 | NL4-3 | RT-Y188L | HeLa + HeLa-JC53 | luciferase | 657
Cc1ccnc2c1NC(=O)c1cccnc1N2C1CC1 | NL4-3 | RT-Y188C | CEM + CEM-SS | XTT | 160
Nc1ccn([C@H]2CC[C@@H](CO)O2)c(=O)n1 | JF20 (RT D67N T69D L210W T215Y) | RT-D67N T69D L210W T215Y | HELA-CD4+ | plaque count | 3.6
Nc1ncnc2c1ncn2CCOCP(=O)(O)O | RF | RT-K65R | C8166 | p24 | 4.44
Cc1ccc2ccccc2c1-n1c(C)nnc1SCC(=O)Nc1ccccc1Br | NL4-3 | RT-K103N Y181C | HeLa + HeLa-JC53 | luciferase | 65
Cc1occc1C(=S)Nc1ccc(Cl)c(/C=N/OC(C)(C)C)c1 | Costatolide-resistant (RT L100I T139I) | RT-L100I T139I | CEM + CEM-SS | XTT | 26
CC(C)=CCN1Cc2cccc3[nH]c(=S)n(c23)C[C@@H]1C | IIIB | RT-Y181C | CEM + CEM-SS | cytopathic effect / XTT | 25
O=c1[nH]cnc2c1ncn2[C@H]1CC[C@@H](CO)O1 | DXG 9X(RT-L74V) | RT-L74V |  |  | >2
CC(C)(C)C(=O)c1sc(C(=O)NCc2ccccc2)c(O)c1O |  | INTG-N155S |  |  | 1
CC(C)=CCN1Cc2cc(Cl)cc3[nH]c(=S)n(c23)C[C@@H]1C | HIVRTMF (RT L74V Y181C) | RT-L74V Y181C T215Y | HT4 + HT4 LacZ-1 | plaque count | 22.7
O=C(NCc1ccc(F)cc1)c1nc(N2CCCCS2(=O)=O)c2cccnc2c1O |  | INTG-S153 N155S |  |  | 15
Cc1cn([C@H]2C[C@H](N=[N+]=[N-])[C@@H](CO)O2)c(=O)[nH]c1=O | D-3 (RT-V108I M184I) | RT-V108I M184I | CEM | cytopathic effect | 2
CC(C)(C)NC(=O)[C@@H]1C[C@@H]2CCCC[C@@H]2CN1C[C@@H](O)[C@H](Cc1ccccc1)NC(=O)[C@H](CC(N)=O)NC(=O)c1ccc2ccccc2n1 | NL4-3 | PR-L10R L63P | MT-4 | p24 | 1
Cc1cn([C@H]2C[C@H](N=[N+]=[N-])[C@@H](CO)O2)c(=O)[nH]c1=O | Oxathiin carboxanilide-resistant RT L100I | RT-L100I | CEM + CEM-SS | XTT | 0.8
Nc1nc2c(ncn2[C@H]2CO[C@@H](CO)O2)c(=O)[nH]1 |  | RT-K65R |  |  | 7
CCOCn1c(Cc2ccccc2)c(C(C)C)c(=O)[nH]c1=O | J-2 (RT-Y181C) | RT-Y181C | CEM | cytopathic effect | 27
Cc1occc1C(=S)Nc1ccc(Cl)c(/C=N/OC(C)(C)C)c1 | Oxathiin carboxanilide-resistant RT L100I | RT-L100I | CEM + CEM-SS | cytopathic effect / XTT | 10
Cc1cn([C@H]2C[C@H](N=[N+]=[N-])[C@@H](CO)O2)c(=O)[nH]c1=O | NL4-3 | RT-L74V | CEM + CEM-SS | cytopathic effect / XTT | 5
CCN(c1nc(F)ccc1NC(C)(C)C)C1CCN(C(=O)c2cc3cc(NC(=O)N4CCN(C)CC4)ccc3[nH]2)CC1 | IIIB | D437N L441P | MT-2 | p24 / ELISA | 1.5
Cc1cc(Br)cc(S(=O)(=O)c2cccc(N)c2C#N)c1 |  | RT-P236L | HeLa + HELA CD4+ | β-galactosidase | 0.455
C/C=C/CSc1cc(NC(=S)c2ccsc2C)ccc1Cl | E BPTU-resistant (RT Y181C) | RT-Y181C | CEM + CEM-SS | cytopathic effect / XTT | >10
Nc1ccn([C@@H]2CC[C@H](CO)O2)c(=O)n1 | 74V (RT-L74V) | RT-L74V | HT4 + HT4 LacZ-1 |  | 1.24
CCc1c(Sc2ccccn2)n(COCc2ccccc2)c(=O)[nH]c1=O | IIIB | RT-Y181C | CEM + CEM-SS | cytopathic effect / XTT | 113
CC(C)CN(C[C@@H](O)[C@H](Cc1ccccc1)NC(=O)[C@H](CC(N)=O)NC(=O)c1ccc2ccccc2n1)C(=O)NC(C)(C)C | NL4-3 | PR-L10R M46I L63P V82T | MT-4 | p24 | 2
Nc1ccn([C@@H]2CO[C@H](CO)S2)c(=O)n1 | HXB2 | RT-M41L L74V V106A T215Y | C8166 | p24 | 2.67
O=c1[nH]cnc2c1ncn2[C@H]1CC[C@@H](CO)O1 | L74V(RT-L74V) | RT-L74V | MT-2 | p24 | 2.7
Nc1nc2c(ncn2[C@H]2CO[C@@H](CO)O2)c(=O)[nH]1 | DXG 9X(RT-L74V) | RT-L74V |  |  | 4.2
Nc1ccn([C@H]2C[C@H](O)[C@](CO)(CF)O2)c(=O)n1 |  | RT-L74V | HeLa | β-galactosidase | <0.413
Cc1cc(S(N)(=O)=O)ccc1NC(=O)COc1ccc(Cl)cc1C(=O)c1cc(Cl)cc(C#N)c1 | NNRTI-resistant (RT K103N L100I) | RT-K103N L100I | MAGI | β-galactosidase | 2.88
CN[C@H]1CO[C@@H]2OCC[C@H](OC(=O)N[C@@H](Cc3ccccc3)[C@H](O)CN(CC(C)C)S(=O)(=O)c3ccc4nc(NC5CC5)sc4c3)[C@@H]21 | NL4-3 | L10F K20T D30N K45I A71V V77I | MT-4 | p24 / luminescence | 0.6
Cc1cn([C@H]2C[C@H](N=[N+]=[N-])[C@@H](CO)O2)c(=O)[nH]c1=O | L74V(RT-L74V) | RT-L74V | MT-2 | p24 | 1
Cc1cn([C@H]2C[C@H](N=[N+]=[N-])[C@@H](CO)O2)c(=O)[nH]c1=O | NRTI resistant | RT-M41L D67N M184V L210W T215Y | HeLa | luciferase | 13.2
CC(C)=CCN1c2cc(Cl)cc3[nH]c(=S)n(c23)C[C@@H]1C |  | RT-K70R L100I | MT-4 |  | 1
CC(C)Nc1cccnc1N1CCN(C(=O)c2cc3cc(NS(C)(=O)=O)ccc3[nH]2)CC1 | A1(RT-G190E) | RT-G190E | H9 | p24 | >55.6
Cc1cn([C@H]2C[C@H](N=[N+]=[N-])[C@@H](CO)O2)c(=O)[nH]c1=O | A036C (RT-T215Y) | RT-T215Y | HT4 + HT4-6C | plaque count | 60
C[C@H](Cn1cnc2c(N)ncnc21)OCP(=O)(O)O | Site-directed mutant | RT-K65R M184V | MT-2 | cytopathic effect / XTT | 2.1
CN[C@H]1CO[C@@H]2OCC[C@H](OC(=O)N[C@@H](Cc3cccc(OC)c3)[C@H](O)CN(CC(C)C)S(=O)(=O)c3ccc4nc(NC(C)C)sc4c3)[C@@H]21 | NL4-3 | L10F M46I I54V V82A | MT-4 | p24 / luminescence | 1.2
COC(=O)c1cc2c(c(OC)c1-c1ccc(N(C)C)cc1)OCO2 | A17 | K103N + Y181C | C8166 | antigen | 148
CC[C@]1(CO)O[C@@H](n2cc(C)c(=O)[nH]c2=O)C[C@@H]1O | RTMDR | RT | HeLa | β-galactosidase | >1
Cc1ccc(NC(=O)CSc2nnc(C)n2-c2cccc3cccnc23)c(Cl)c1 | NL4-3 | RT-Y188L | HeLa + HeLa-JC53 | luciferase | 712
O=c1[nH]cnc2c1ncn2[C@H]1CC[C@@H](CO)O1 | Recombinant | RT-M41L V118I M184V | HeLa | luciferase | 1.7
CC(C)Oc1ccc(Cc2ccccc2)cc1C(=O)CC(=O)C(=O)O |  | INTG-T66I N155S |  |  | 94
O=C1O[C@H]2[C@@H]3OC(=O)c4cc(O)c(O)c(O)c4-c4c(cc(O)c(O)c4O)C(=O)OC[C@H]2O[C@@H](OC(=O)c2cc(O)c(O)c(O)c2)[C@@H]3OC(=O)c2cc(O)c(O)c3c2[C@@H]2C1=CC(=O)[C@](O)(O3)C2(O)O | NNRTI-resistant (RT K103N) ARP1010 | RT-K103N | MAGI |  | 1.12
Nc1ccn([C@H]2C=C[C@@H](CO)O2)c(=O)n1 | HXB2 | RT-T215Y | CD4+HELA + HeLa | plaque count | 1.33
Nc1ncnc2c1ncn2CCOCP(=O)(O)O | M184V(RT-M184V) | RT-M184V | MT-2 | p24 | 1.1
Nc1ccn([C@H]2CC[C@@H](CO)O2)c(=O)n1 | HXB2 | RT-M184V | HT4 + HT4 LacZ-1 | plaque count | 3.21
C=C(C)OC(=O)N1c2cc(Cl)ccc2NC(=S)C1(C)C | A1(RT-G190E) | RT-G190E | H9 | p24 | >1670
CC(=O)c1ccc(C)cc1NC(C(N)=O)c1c(Cl)cccc1Cl | IIIB | RT-V189I | MAGI | MTT | 4.89
C#C[C@]1(CO)O[C@@H](n2cc(C)c(=O)[nH]c2=O)C[C@@H]1O |  | RT-Y181C | HeLa | β-galactosidase | 0.361
Nc1ccn([C@H]2CC[C@@H](CO)O2)c(=O)n1 | HXB2 | RT-L74M | HELA/CD4 + HELA CD4+ | plaque count | 2
Cc1ccnc2c1NC(=O)c1cccnc1N2C1CC1 | HXB2 | RT-Y181C | MAGI (CCR5) + MAGI | β-galactosidase | 170
Nc1nc(=O)n([C@@H]2CS[C@H](CO)O2)cc1F | RTMN(181 184) (RT M41L Y181C M184V T215Y) | RT-M41L Y181C M184V T215Y | HT4 + HT4 LacZ-1 | plaque count | >5560
CC(C)CN(C[C@@H](O)[C@H](Cc1ccccc1)NC(=O)O[C@H]1CCOC1)S(=O)(=O)c1ccc(N)cc1 | IIIB | K112M K113E V128I M200I H219P I401T R409K D437N L441P | MT-2 | p24 / ELISA | 1.2
CC(C)CN(C[C@@H](O)[C@H](Cc1ccccc1)NC(=O)O[C@H]1CCOC1)S(=O)(=O)c1ccc(N)cc1 | NL4-3 | L10I I15V K20R L24I V32I M36I M46I L63P K70Q V82A I84V L89M | MT-4 | p24 / luminescence | >27
COc1cc(C(F)(F)F)cc(S(=O)(=O)c2cccc(N)c2C#N)c1 |  | RT-K103N | HeLa + HELA CD4+ | β-galactosidase | 129

A second listing of 9 rows from above:

structure	strain	mutations	cell line	method	value
Cc1occc1C(=S)Nc1ccc(Cl)c(/C=N/OC(C)(C)C)c1	Costatolide-resistant (RT L100I T139I)	RT-L100I T139I	CEM + CEM-SS	XTT	26
Cc1cn([C@H]2C[C@H](N=[N+]=[N-])[C@@H](CO)O2)c(=O)[nH]c1=O	L74V(RT-L74V)	RT-L74V	MT-2	p24	1
Cc1occc1C(=S)Nc1ccc(Cl)c(/C=N/OC(C)(C)C)c1	Oxathiin carboxanilide-resistant RT L100I	RT-L100I	CEM + CEM-SS	cytopathic effect / XTT	10
Cc1ccc(-n2cnnc2SCC(=O)Nc2ccc(C)cc2Br)cc1	NL4-3	RT-K103N Y181C	HeLa + HeLa-JC53	luciferase	>142
Cc1cn([C@H]2C[C@H](N=[N+]=[N-])[C@@H](CO)O2)c(=O)[nH]c1=O	D-3 (RT-V108I M184I)	RT-V108I M184I	CEM	cytopathic effect	2
COC(=O)c1ccc(NC(=O)CSc2nnc(C)n2-c2ccc(C)cc2)c(Cl)c1	NL4-3	RT-K103N Y181C	HeLa + HeLa-JC53	luciferase	300
Cc1cn([C@H]2C[C@H](N=[N+]=[N-])[C@@H](CO)O2)c(=O)[nH]c1=O	NRTI resistant	RT-M41L D67N M184V L210W T215Y	HeLa	luciferase	13.2
Cc1cc(O)cc(S(=O)(=O)c2cccc(N)c2C#N)c1		RT-Y181C	HeLa + HELA CD4+	β-galactosidase	571
Nc1nc(=O)n([C@@H]2CS[C@H](CO)O2)cc1F	RTMN(181 184) (RT M41L Y181C M184V T215Y)	RT-M41L Y181C M184V T215Y	HT4 + HT4 LacZ-1	plaque count	>5560